Target: recombinant hACE2 (human) (UniProt Q9BYF1)
Assay: BLI
Settings: Fc fusion

SARS-CoV RBD-hFc (from UniProt P59594 306-527)
koff: 0.00115 s⁻¹
